Data as given in paper PMC8411975, “Frag4Lead: growing crystallographic fragment hits by catalog using fragment-guided template docking” (Acta Crystallographica. Section D, Structural Biology, 2021).

The chains behind the UniProt entries cited, without tags or fusion partners. Residues count along the entry.
UniProt P11838, 90-419 limits assumed: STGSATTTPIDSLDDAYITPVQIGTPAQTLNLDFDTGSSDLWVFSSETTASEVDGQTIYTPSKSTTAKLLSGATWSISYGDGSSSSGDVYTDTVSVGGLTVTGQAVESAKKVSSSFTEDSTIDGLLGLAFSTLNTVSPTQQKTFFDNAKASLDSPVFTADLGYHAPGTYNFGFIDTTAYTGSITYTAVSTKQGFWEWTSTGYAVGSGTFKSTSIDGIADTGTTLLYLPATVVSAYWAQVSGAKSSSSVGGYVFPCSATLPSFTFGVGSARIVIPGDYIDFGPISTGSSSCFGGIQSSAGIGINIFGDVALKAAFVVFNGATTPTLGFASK

Molecular target: endothiapepsin (EP) (Cryphonectria parasitica, UniProt P11838)
Test: Isothermal titration calorimetry (direct or SAP114-displacement titration) against EP
Type: binding
Conditions: from ITC Kd; tested form: HCl

NC1=NC(=NNc2ccccc2)c2ccccc21
LE (ligand efficiency): 0.39 kcal mol^−1 per atom
